A mixed list of measured activities; the numbers were collected in NIAID ChemDB.

Common to all: growth or infection tests; agent: HIV-1

Rows are shuffled and stem from different studies.

{"smiles": "COc1ccc2c(c1)N(C(=O)OC(C)C)[C@@H](CSC)C(=S)N2", "endpoint": "EC50", "method": "p24", "cell line": "CEM", "strain": "IIIB", "value": "0.001 µg/mL"}
{"smiles": "Cc1cn([C@H]2C=C[C@@H](CO)O2)c(=O)[nH]c1=O", "mutations": "A62V/V75I/F77L/F116L/Q151M/M184V", "endpoint": "EC50", "method": "recombinant virus assay", "cell line": "MT-2", "strain": "Clinical isolate", "value": "3.504 µM"}
{"smiles": "Cc1cn([C@@H]2O[C@H](CO[Si](C)(C)C(C)(C)C)C3(OS(=O)(=O)C=C3N)[C@H]2O[Si](C)(C)C(C)(C)C)c(=O)n(C)c1=O", "endpoint": "EC50", "method": "cytopathic effect", "cell line": "CEM", "strain": "IIIB", "value": "0.015 µg/mL"}
{"smiles": "Cc1cn([C@H]2C[C@H](N=[N+]=[N-])[C@@H](CO)O2)c(=O)[nH]c1=O", "endpoint": "EC50", "method": "XTT", "cell line": "MT-2", "strain": "IIIB", "value": "0.04 µM"}
{"smiles": "Nc1nc(=O)n([C@@H]2CS[C@H](CO)O2)cc1F", "mutations": "T69ins/K70R/M184V/K219Q", "endpoint": "EC50", "method": "recombinant virus assay", "cell line": "MT-2", "strain": "Clinical isolate", "value": ">13.3 µM"}
{"smiles": "CCC(=O)c1ccc(F)c([C@@H]2C[C@@H]2NC(=O)Nc2ccc(C#N)cn2)c1O", "mutations": "ZA-resistant mutant", "endpoint": "EC50", "method": "absorbance", "cell line": "PBMC", "strain": "92BR014", "value": "0.0002 µM"}
{"smiles": "Cc1ccnc2c1NC(=O)c1cccnc1N2C1CC1", "mutations": "RT-Y181C", "endpoint": "EC50", "method": "p24", "cell line": "CEM", "strain": "IIIB", "value": "2.5 µg/mL"}
{"smiles": "C[C@H](Cn1cnc2c(N)nc(N)nc21)OCP(=O)(O)O", "endpoint": "EC50", "method": "syncytia", "cell line": "MOLT4 + MOLT-4", "strain": "HE", "value": "1 µM"}
{"smiles": "Cc1cc(C#N)cc(C)c1Oc1nc(Nc2ccc(C#N)cc2)nc(N)c1Br", "endpoint": "EC50", "method": "absorbance", "cell line": "PBMC", "strain": "97ZA009", "value": "0.0005 µM"}
{"smiles": "Cc1cn([C@H]2C[C@H](N=[N+]=[N-])[C@@H](CO)O2)c(=O)[nH]c1=O", "endpoint": "EC50", "method": "p24", "cell line": "MM + M/M", "strain": "BaL", "value": "0.02 µM"}
{"smiles": "Cc1cn([C@@H]2O[C@H](CO[Si](C)(C)C(C)(C)C)C3(OS(=O)(=O)C=C3N)[C@H]2O[Si](C)(C)C(C)(C)C)c(=O)n(C)c1=O", "mutations": "RT-M184I", "endpoint": "EC50", "method": "p24", "cell line": "CEM", "strain": "IIIB", "value": "0.025 µg/mL"}
{"smiles": "CCCc1cc(=O)oc2c3c(c4c(c12)OC(C)(C)C=C4)O[C@H](C)[C@@H](C)[C@@H]3O", "endpoint": "EC50", "method": "RT activity", "cell line": "PBMC", "strain": "ROJO(SI)", "value": "0.07 µM"}
{"smiles": "C[C@@H](Cn1cnc2c(N)ncnc21)OCP(=O)(O)O", "endpoint": "EC50", "method": "p24 / syncytia", "cell line": "PBL", "strain": "IIIB", "value": ">20 µM"}
{"smiles": "Cc1cn([C@H]2C=C[C@@H](CO)O2)c(=O)[nH]c1=O", "endpoint": "EC50", "method": "p24", "cell line": "PBMC", "strain": "BaL", "value": "0.047 µM"}
{"smiles": "Cc1ccnc2c1NC(=O)c1cccnc1N2C1CC1", "mutations": "RT-Y181C", "endpoint": "EC50", "method": "cytopathic effect / XTT", "cell line": "CEM + CEM-SS", "strain": "NL4-3", "value": "1.3 µM"}
{"smiles": "CC(C)CN(C[C@@H](O)[C@H](Cc1ccccc1)NC(=O)O[C@H]1CCO[C@H]2OCC[C@H]21)S(=O)(=O)c1ccc2nc(NC3CC3)sc2c1", "mutations": "L10F L33I M36I M46I I54V K55R I62V L63P A71V G73S V82T", "endpoint": "EC50", "method": "p24 / luminescence", "cell line": "MT-4", "strain": "NL4-3", "value": "0.0043 µM"}
{"smiles": "CC(C)=CCN1Cc2cc(Cl)cc3[nH]c(=S)n(c23)C[C@@H]1C", "mutations": "RT-A98G K103R", "endpoint": "EC50", "cell line": "PBMC", "strain": "MVP5180 (RT A98G K103R)", "value": ">6.25 µM"}
{"smiles": "Cc1cn([C@H]2C[C@H](N=[N+]=[N-])[C@@H](CO)O2)c(=O)[nH]c1=O", "mutations": "RT-K20R M41L D67N T69N K70R L210W T215Y", "endpoint": "EC50", "method": "p24", "cell line": "PBMC", "strain": "G890-1 NRTI resistant", "value": ">3.2 µM"}
{"smiles": "Cc1occc1C(=S)Nc1ccc(Cl)c(/C=N/OC(C)(C)C)c1", "endpoint": "EC50", "method": "p24", "cell line": "CEM", "strain": "IIIB", "value": "0.05 µg/mL"}
{"smiles": "CC(C)=CCOc1cc(NC(=S)c2ccoc2C)ccc1Cl", "mutations": "RT-K103N", "endpoint": "EC50", "method": "cytopathic effect", "cell line": "CEM", "strain": "IIIB", "value": "0.023 µg/mL"}
{"smiles": "CC(C)(C)NC(=O)[C@@H]1C[C@@H]2CCCC[C@@H]2CN1C[C@@H](O)[C@H](Cc1ccccc1)NC(=O)[C@H](CC(N)=O)NC(=O)c1ccc2ccccc2n1", "mutations": "PR-L10I K20C M36I L63T I64V A71V", "endpoint": "EC50", "cell line": "PBMC", "strain": "BCF06", "value": "0.0138 µM"}
{"smiles": "COC(=O)[C@H](C)NP(=O)(OC[C@@H]1C=C[C@H](n2cc(C)c(=O)[nH]c2=O)O1)Oc1ccc(Br)cc1", "mutations": "RT-M41L E44D D67N T69D L210W T215Y", "endpoint": "EC50", "method": "p24", "cell line": "PBMC", "strain": "T156-3 NRTI resistant", "value": "0.0033 µM"}
{"smiles": "CCCc1cc(=O)oc2c3c(c4c(c12)OC(C)(C)C=C4)O[C@@H](C)[C@H](C)[C@@H]3O", "mutations": "RT-Y181C", "endpoint": "EC50", "method": "XTT", "cell line": "CEM + CEM-SS", "strain": "UC38-resistant (RT Y181C)", "value": "<0.03 µM"}
{"smiles": "CC(C)CN(C[C@@H](O)[C@H](Cc1ccccc1)NC(=O)O[C@H]1CCOC1)S(=O)(=O)c1ccc(N)cc1", "mutations": "L10I I54V K20R L24I V32I L33F M36I M46I I54M L63P K70Q V82I I84V L89M", "endpoint": "EC50", "method": "p24 / luminescence", "cell line": "MT-4", "strain": "NL4-3", "value": ">1 µM"}
{"smiles": "Cc1cn([C@H]2C[C@H](N=[N+]=[N-])[C@@H](CO)O2)c(=O)[nH]c1=O", "endpoint": "EC90", "method": "p24", "cell line": "PBMC", "strain": "458 clinical isolates delavirdine-resistant", "value": "0.3 µM"}
{"smiles": "CC(C)=CCOc1cc(NC(=S)c2ccsc2C)ccc1Cl", "mutations": "RT-V106A", "endpoint": "EC50", "method": "syncytia", "cell line": "CEM", "strain": "IIIB", "value": "0.025 µM"}
{"smiles": "O=c1[nH]cnc2c1ncn2[C@H]1CC[C@@H](CO)O1", "mutations": "RT-A98G K103R Y181C", "endpoint": "EC50", "cell line": "PBMC", "strain": "BCF01", "value": "<0.125 µM"}
{"smiles": "C#C[C@@]1(CO)C=C[C@H](n2cc(C)c(=O)[nH]c2=O)O1", "endpoint": "EC50", "method": "β-galactosidase", "cell line": "MAGI (CCR5) + MAGI", "strain": "NL4-3 WT", "value": "0.27 µM"}
{"smiles": "COc1ccc(S(=O)(=O)N(CC(C)C)C[C@@H](O)[C@H](Cc2ccccc2)NC(=O)O[C@H]2CCO[C@H]3OCC[C@H]32)cc1", "mutations": "L10I I54V K20R L24I V32I L33F M36I M46I I54M L63P K70Q V82I I84V L89M", "endpoint": "EC50", "method": "p24 / luminescence", "cell line": "MT-4", "strain": "NL4-3", "value": ">1 µM"}
{"smiles": "CCC[C@@]1(CCc2ccccc2)CC(O)=C([C@H](CC)c2cccc(NS(=O)(=O)c3ccc(C(F)(F)F)cn3)c2)C(=O)O1", "endpoint": "EC50", "method": "p24", "cell line": "PBMC", "strain": "Isolate N. Amer 6", "value": "<0.12 µM"}
{"smiles": "CC(C)CN(C[C@@H](O)[C@H](Cc1ccccc1)NC(=O)[C@H](CC(N)=O)NC(=O)c1ccc2ccccc2n1)C(=O)NC(C)(C)C", "mutations": "PR-L10V T12I G16E R57K I64V", "endpoint": "EC50", "method": "p24", "cell line": "PBMC", "strain": "Isolate A PR L10V/T12I/G16E/R57K/I64V", "value": "<0.2 µM"}
{"smiles": "Cc1cn([C@H]2C[C@H](N=[N+]=[N-])[C@@H](CO)O2)c(=O)[nH]c1=O", "endpoint": "EC50", "method": "p24", "cell line": "PBMC", "strain": "8791 CLADE A CLADE A", "value": "0.007 µM"}
{"smiles": "COC(=O)N[C@H](C(=O)N[C@@H](Cc1ccccc1)[C@@H](O)CN(Cc1ccc(-c2ccccn2)cc1)NC(=O)[C@@H](NC(=O)OC)C(C)(C)C)C(C)(C)C", "mutations": "L10I I15V K20R L24I V32I M36I M46I I54V I62V L63P K70Q V82A L88M", "endpoint": "EC50", "method": "p24 / luminescence", "cell line": "MT-4", "strain": "NL4-3", "value": ">1 µM"}
{"smiles": "CC(C)Nc1cccnc1N1CCN(C(=O)c2cc3cc(NS(C)(=O)=O)ccc3[nH]2)CC1", "mutations": "RT-V179D", "endpoint": "EC50", "method": "cytopathic effect", "cell line": "CEM", "strain": "IIIB", "value": "0.13 µg/mL"}
{"smiles": "Cc1ccnc2c1NC(=O)c1cccnc1N2C1CC1", "mutations": "Y181C", "endpoint": "EC50", "method": "RT activity / fluorescence", "value": ">67.5 µM"}
{"smiles": "CN[C@H]1CO[C@@H]2OCC[C@H](OC(=O)N[C@@H](Cc3ccccc3)[C@H](O)CN(CC(C)C)S(=O)(=O)c3ccc4nc(NC5CC5)sc4c3)[C@@H]21", "mutations": "L10I I15V K20R L24I V32I M36I M46I I54V I62V L63P K70Q V82A L88M", "endpoint": "EC50", "method": "p24 / luminescence", "cell line": "MT-4", "strain": "NL4-3", "value": "0.0021 µM"}
{"smiles": "CCc1c(Sc2ccccn2)n(COCc2ccccc2)c(=O)[nH]c1=O", "mutations": "RT-L100I", "endpoint": "EC50", "method": "XTT", "cell line": "CEM + CEM-SS", "strain": "Dihydrocostatolide-resistant (RT-L100I)", "value": "0.08 µM"}
{"smiles": "CC(C)(C)NC(=O)[C@@H]1CN(Cc2cccnc2)CCN1C[C@@H](O)C[C@@H](Cc1ccccc1)C(=O)N[C@H]1c2ccccc2C[C@H]1O", "mutations": "RT-M41L T69ins L74V M184V L210W T215Y", "endpoint": "EC50", "method": "p24", "cell line": "PBMC", "strain": "52534-2 NRTI resistant recombinant", "value": "0.0365 µM"}
{"smiles": "CC(C)(C)NC(=O)[C@@H]1C[C@@H]2CCCC[C@@H]2CN1C[C@@H](O)[C@H](Cc1ccccc1)NC(=O)[C@H](CC(N)=O)NC(=O)c1ccc2ccccc2n1", "mutations": "PR-L10R M46I L63P V82T I84V", "endpoint": "EC50", "method": "p24", "cell line": "MT-4", "strain": "NL4-3", "value": "<0.2 µM"}
{"smiles": "Cc1ccnc2c1NC(=O)c1cccnc1N2C1CC1", "mutations": "RT-L74V", "endpoint": "EC50", "method": "plaque count", "cell line": "HT4 + HT4 LacZ-1", "strain": "HXB2", "value": "0.05 µM"}
{"smiles": "Cc1cn([C@H]2C[C@H](N=[N+]=[N-])[C@@H](CO)O2)c(=O)[nH]c1=O", "endpoint": "EC50", "method": "p24", "cell line": "MT-4", "strain": "263)(ddC", "value": "0.07 µM"}

The first 5 rows once more:

{"smiles": "COc1ccc2c(c1)N(C(=O)OC(C)C)[C@@H](CSC)C(=S)N2", "endpoint": "EC50", "method": "p24", "cell line": "CEM", "strain": "IIIB", "value": "0.001 µg/mL"}
{"smiles": "Cc1cn([C@H]2C=C[C@@H](CO)O2)c(=O)[nH]c1=O", "mutations": "A62V/V75I/F77L/F116L/Q151M/M184V", "endpoint": "EC50", "method": "recombinant virus assay", "cell line": "MT-2", "strain": "Clinical isolate", "value": "3.504 µM"}
{"smiles": "Cc1cn([C@@H]2O[C@H](CO[Si](C)(C)C(C)(C)C)C3(OS(=O)(=O)C=C3N)[C@H]2O[Si](C)(C)C(C)(C)C)c(=O)n(C)c1=O", "endpoint": "EC50", "method": "cytopathic effect", "cell line": "CEM", "strain": "IIIB", "value": "0.015 µg/mL"}
{"smiles": "Cc1cn([C@H]2C[C@H](N=[N+]=[N-])[C@@H](CO)O2)c(=O)[nH]c1=O", "endpoint": "EC50", "method": "XTT", "cell line": "MT-2", "strain": "IIIB", "value": "0.04 µM"}
{"smiles": "Nc1nc(=O)n([C@@H]2CS[C@H](CO)O2)cc1F", "mutations": "T69ins/K70R/M184V/K219Q", "endpoint": "EC50", "method": "recombinant virus assay", "cell line": "MT-2", "strain": "Clinical isolate", "value": ">13.3 µM"}

ECn: concentration that inhibits the pathogen or its effect by n%.